{"source": "PubChem BioAssay AID1224833 (University of Georgia, 2016)", "test": "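Human genes whose knock-down alters rotavirus replication in monkey cells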 (primary screen)", "cell system": "monkey MA104 kidney cells", "reagents": "siRNA pool against human genes, 50 nM", "timing": "48 h knock-down before infection; read 24 h after infection", "challenge": "infection with rotavirus strain RV3 two days after transfection; infectious dose for this stage not given", "detection": "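Rotavirus antigen per well by fluorescent immunoassay, normalised to non-targeting control wells on each plate and given as a standard z-score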", "reading the numbers": "z-score vs non-targeting control: higher = more rotavirus replication than with non-targeting control", "hit rule": "In these data the active calls have z-score vs non-targeting control at about -1 or lower, or at about 1 or higher", "calls": "active = z-score beyond 1 either way; inactive = z-score within 1 of zero", "note": "Shown is one part, drawn at random, of about 12,000 deposited reagents. In the full data, about 5,600 (46%) got an active call. 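Active calls cover z-scores past 1 in both directions, so they include lowered as well as raised rotavirus replication.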"}
{"gene": "SNX7 (sorting nexin 7)", "z-score vs non-targeting control": 1.11, "outcome": "active"}
{"gene": "TEDDM1 (transmembrane epididymal protein 1)", "z-score vs non-targeting control": 0.573, "outcome": "inactive"}
{"gene": "GNG7 (G protein subunit gamma 7)", "z-score vs non-targeting control": -0.622, "outcome": "inactive"}
{"gene": "GTF3C4 (general transcription factor IIIC subunit 4)", "z-score vs non-targeting control": -1.27, "outcome": "active"}
{"gene": "KIFAP3 (kinesin associated protein 3)", "z-score vs non-targeting control": 1.12, "outcome": "active"}
{"gene": "ZNF646 (zinc finger protein 646)", "z-score vs non-targeting control": 0.627, "outcome": "inactive"}
{"gene": "BPIFB3 (BPI fold containing family B member 3)", "z-score vs non-targeting control": -1.16, "outcome": "active"}
{"gene": "ZNF236 (zinc finger protein 236)", "z-score vs non-targeting control": 0.656, "outcome": "inactive"}
{"gene": "FAU (FAU ubiquitin like and ribosomal protein S30 fusion)", "z-score vs non-targeting control": -0.921, "outcome": "inactive"}
{"gene": "LTAP1 (lipid transport auxiliary protein 1)", "z-score vs non-targeting control": 1.04, "outcome": "active"}
{"gene": "CENPK (centromere protein K)", "z-score vs non-targeting control": 0.309, "outcome": "inactive"}
{"gene": "WNT5A (Wnt family member 5A)", "z-score vs non-targeting control": 0.772, "outcome": "inactive"}
{"gene": "DLST (dihydrolipoamide S-succinyltransferase)", "z-score vs non-targeting control": 1.1, "outcome": "active"}
{"gene": "SSNA1 (SS nuclear autoantigen 1)", "z-score vs non-targeting control": -3.2, "outcome": "active"}
{"gene": "SPCS1 (signal peptidase complex subunit 1)", "z-score vs non-targeting control": -1.16, "outcome": "active"}
{"gene": "COX15 (cytochrome c oxidase assembly factor COX15)", "z-score vs non-targeting control": 1.3, "outcome": "active"}
{"gene": "CCDC92 (coiled-coil domain containing 92)", "z-score vs non-targeting control": 1.38, "outcome": "active"}
{"gene": "PPIG (peptidylprolyl isomerase G)", "z-score vs non-targeting control": 1.18, "outcome": "active"}
{"gene": "OR2T8 (olfactory receptor family 2 subfamily T member 8)", "z-score vs non-targeting control": -1.5, "outcome": "active"}

Targets above whose target name begins with Z or z (2):
{"gene": "ZNF646 (zinc finger protein 646)", "z-score vs non-targeting control": 0.627, "outcome": "inactive"}
{"gene": "ZNF236 (zinc finger protein 236)", "z-score vs non-targeting control": 0.656, "outcome": "inactive"}
